Experimental data published in PMC11373652.

Tested on: CC(=O)N[C@H]1[C@@H](OP(=O)(O)OP(=O)(O)OC[C@H]2O[C@@H](n3ccc(=O)[nH]c3=O)[C@H](O)[C@@H]2O)O[C@H](CO)[C@@H](O)[C@@H]1O
Experiment: purified protein
Conditions: pH 7.5; 30.0 °C

Substance: SdbA510–1050 (SdbA C-terminal domain) (Legionella pneumophila subsp. pneumophila str. Philadelphia 1)
- Km: 56.3 ± 12.7 µM
